Pooled drug test results. Numbers come from NIAID ChemDB, via PubChem.

Shared fields: tests in culture

A number after MIC or MFC names an inhibition level or a share of isolates.

smiles,species,read-out,read by,strain,dose,cell line,result
O=C(NN=CC1C(c2ccccc2)=Nc2ccccc21)N1c2ccccc2C=Cc2ccccc21,Aspergillus terreus,zone,agar diffusion,MTCC-1782,750 µg/mL,,6 mm
Cc1ccc(C(C)C)cc1,Aspergillus fumigatus,MLC,,F05,,,>20 µg/mL
CSc1nsc(-c2cccc3ccccc23)c1C#N,Measles virus,EC50,plaque count,Edmonston,,HEP-2,>4 µM
COc1cc(N=C(N)N)ccc1-c1ccc(-c2ccc(N=C(N)N)cc2OC)o1,Bovine viral diarrhea virus,inhibition,,,25 µM,MDBK,93%
CC(=O)ONc1ccc(S(=O)(=O)N(Cc2ccccc2)C[C@@H](O)[C@H](Cc2ccccc2)NC(=O)CCc2c[nH]c3ccccc23)cc1,SIV,EC50,MTT,,,CEM,8.4 µM
Nc1nc2c(ncn2CCC(CO)COP(=O)(O)OP(=O)(O)OP(=O)(O)O)c(=O)[nH]1,Duck hepatitis B virus,EC50,,,,Primary duck hepatocytes,0.7 µM
O=c1[nH]c(=O)n([C@H]2C[C@H](O)[C@@H](CO)O2)cc1I,Varicella zoster virus,inhibition,plaque count,YS,0.1 µg/mL,HELF,5%
C[C@@]1(O)[C@H](O)[C@@H](CO)O[C@H]1n1ccn2c(=O)nc(N)nc12,Dengue virus,EC50,,TYPE 2,,,>100 µM
Nc1nc2c(ncn2OCC(CO)OCP(=O)(O)O)c(=O)[nH]1,Maedi-visna virus,MIC,,K184,,,0.003 µM
CCOC(=O)c1sc(SC)c(C(=O)OCC)c1O,Trichophyton mentagrophytes,MIC,,A-280,,,>100 µg/mL
O=C(Nc1cc(C(F)(F)F)cc(C(F)(F)F)c1)NN(CC(O)CN1CCOCC1)C(=O)Nc1cc(C(F)(F)F)cc(C(F)(F)F)c1,Escherichia coli,MIC,,ES142,,,172 µM
CCC(CC)O[C@@H]1C=C(C(=O)O)C[C@H](N)[C@H]1NC(C)=O,Influenza A virus,EC50,visual reading,Influenza A/Washington/05/96 (H3N2),,MDCK,0.03 µM
Cc1cn([C@@H]2O[C@H](COP(=O)(O)O)[C@@H](O)[C@H]2O)c(=O)nc1N,Vesicular stomatitis virus,EC50,,,,,>400 µg/mL
NC(=NC1CCCC1)c1ccc(-c2ccc(-c3ccc(C(N)=NC4CCCC4)cc3)o2)cc1,Candida albicans,MFC,,Isolate 1 (strain 2-76),,,25 µg/mL
CCOC(=O)c1sc(SC)cc1-c1ccc(Br)cc1,Trichophyton mentagrophytes,MIC,,A-280,,,>100 µg/mL
O=c1[nH]cnc2c1ncn2OCCOCP(=O)(O)O,Maedi-visna virus,MIC,,K184,,,100 µM
Nc1nc(=O)n2ccn([C@@H]3C[C@@H](O)[C@H](CO)O3)c2n1,West Nile virus,EC50,,,,,>100 µM
CSc1cc(-c2ccc(F)cc2)c(C(=O)O)s1,Trichophyton mentagrophytes,MIC,,A-280,,,50 µg/mL
N#Cc1csnc1-c1ccccc1,Encephalomyocarditis virus,EC50,plaque count,Encephalomyocarditis virus,,L929,>100 µM
Nc1nc2c(ncn2COC(CO)COP(=O)(O)OP(=O)(O)OP(=O)(O)O)c(=O)[nH]1,Duck hepatitis B virus,EC50,,,,Primary duck hepatocytes,4 µM
COc1cc(OC)c(NC(=S)Nc2ccc(NC(=O)c3ccco3)cc2)cc1Cl,Rhesus cytomegalovirus,EC50,,,,HFF,>20 µM
C=CCc1ccc(OC)c(OC)c1,Candida albicans,MIC90,turbidity,3036,,,340 µg/mL
CCC(=O)C(CCCCCCOc1ccc(OC)cc1Cl)C(=O)CC,Mouse cytomegalovirus,inhibition,plaque count,SMITH,4 µg/mL,MEF,70%
CSc1cc(-c2ccc(Br)cc2)c(C(=O)O)s1,Trichophyton mentagrophytes,MIC,,A-280,,,50 µg/mL
CCCCCCCCc1cn([C@@H]2O[C@H](COP(=O)(O)O)[C@@H](O)[C@H]2O)c(=O)nc1N,Vesicular stomatitis virus,EC50,,,,,>400 µg/mL
CCN=C1NC2C(OC(CO)C(O)C2O)S1,Kaposi sarcoma virus,inhibition,flow cytometry,,0.001 µM,HEK 293,8%
CC(=O)ONc1ccc(S(=O)(=O)N(Cc2ccccc2)C[C@@H](O)[C@H](Cc2ccccc2)NC(=O)[C@H](CC(C)C)N2C(=O)c3ccccc3C2=O)cc1,SIV,EC50,MTT,,,CEM,8.6 µM
Nc1nc2c(ncn2OCC2COP(=O)(O)CO2)c(=O)[nH]1,Maedi-visna virus,MIC,,K184,,,0.009 µM
COc1cc(OC)c(NC(=S)Nc2ccc(NC(C)=O)cc2)cc1Cl,Simian cytomegalovirus,EC50,,Colburn,,HFF,>20 µM
Nc1nc2c(ncn2CCC(CO)CO)c(=O)[nH]1,Human herpesvirus 7,inhibition,antigen,SB,10 µM,HUMAN CORD BLOOD CELLS,30%
CCCCCc1cn([C@@H]2O[C@H](COP(=O)(O)O)[C@@H](O)[C@H]2O)c(=O)nc1N,Vesicular stomatitis virus,EC50,,,,,>400 µg/mL
Nc1nc(N)c2ncn(OCC(CO)OCP(=O)(O)O)c2n1,Maedi-visna virus,MIC,,K184,,,0.06 µM
CC(C)CN(C[C@@H](O)[C@H](Cc1ccccc1)NC(=O)[C@H](C(C)C)N1C(=O)c2ccccc2C1=O)S(=O)(=O)c1ccc(Br)cc1,SIV,EC50,MTT,,,CEM,3.2 µM
N=C(N)c1ccc(-c2ccc(-c3nc4ccc(C(=N)N)cc4[nH]3)o2)cc1,Bovine viral diarrhea virus,inhibition,,,5 µM,MDBK,43%
CCOC(=O)/C=C/[C@H](C[C@@H]1CCNC1=O)NC(=O)[C@@H](CC(=O)[C@@H](NC(=O)c1cc(C)on1)C(C)C)Cc1ccc(F)cc1,Rhinovirus,EC50,cytopathic effect / visual reading,Isolate 7,,OHIO HELA-I,0.02 µg/mL
CCCCCCCCCCCCCCCCCCCCCCOCC(C)(COCCCCCCCCCCCCCCCCCCCCCC)CO[C@]1(C(=O)O)C[C@H](OS(=O)(=O)O)[C@@H](NC(C)=O)[C@H]([C@H](OS(=O)(=O)O)[C@@H](COS(=O)(=O)O)OS(=O)(=O)O)O1,Rotavirus,EC50,plaque count,WA (serotype 1),,MA-104,2.1 µg/mL
O=C(NN1C(=O)CSC1C1C(c2ccccc2)=Nc2ccccc21)N1c2ccccc2C=Cc2ccccc21,Aspergillus terreus,zone,agar diffusion,MTCC-1782,500 µg/mL,,6 mm
O=c1[nH]c(=O)n([C@@H]2O[C@H](CO)[C@@H](O)[C@@H]2O)cc1/C=C/Br,Varicella zoster virus,inhibition,plaque count,Kawaguchi,0.01 µg/mL,HELF,100%
O=C(Nc1cc(C(F)(F)F)cc(C(F)(F)F)c1)NN(Cc1cccc(O)c1)C(=O)Nc1cc(C(F)(F)F)cc(C(F)(F)F)c1,Escherichia coli,MIC,,ES142,,,>300 µM
CCOC(=O)c1sc2cc(-c3ccc(F)cc3)oc(=O)c2c1N,Trichophyton mentagrophytes,MIC,,A-280,,,>100 µg/mL
CCC(C)n1ncn(-c2ccc(N3CCN(c4ccc(OC[C@H]5CO[C@](Cn6cncn6)(c6ccc(Cl)cc6Cl)O5)cc4)CC3)cc2)c1=O,Candida spp.,MIC90,broth dilution,Fluconazole-resistant,,,>4 µg/mL
c1cc(-c2ccc(-c3nc4ccc(C5=NCCN5)cc4[nH]3)o2)ccc1C1=NCCN1,Bovine viral diarrhea virus,inhibition,,,5 µM,MDBK,0%
CCOC(=O)c1sc2cc(-c3cccnc3)oc(=O)c2c1N,Trichophyton mentagrophytes,MIC,,A-280,,,>100 µg/mL
O=C(Nc1ccc(NC(=S)Nc2cc(C(F)(F)F)cc(C(F)(F)F)c2)cc1)c1csnn1,Rat cytomegalovirus,EC50,virus yield,,,HFF,>20 µM
Cn1cc(C(=O)NCc2ccc(Cl)cc2)c(=O)c2cc(CN3CCOCC3)ccc21,Rhesus cytomegalovirus,EC50,plaque count,,,HFF,1 µM
Nc1nc(=O)n([C@@H]2O[C@H](CO)[C@@H](O)[C@@H]2F)cc1I,Varicella zoster virus,inhibition,plaque count,Ohtomo,0.001 µg/mL,HELF,10%
CC(=O)ONc1ccc(S(=O)(=O)N(CC(C)C)C[C@@H](O)[C@H](Cc2ccccc2)NC(=O)[C@H](CC(C)C)N2C(=O)c3ccccc3C2=O)cc1,SIV,EC50,MTT,,,CEM,7.2 µM
Nc1ncnc2c1ncn2OCCOCP(=O)(O)O,Maedi-visna virus,MIC,,K184,,,8 µM
CC(=O)ONc1ccc(S(=O)(=O)N(CC(C)C)C[C@@H](O)[C@H](Cc2ccccc2)NC(=O)[C@H](C(C)C)N2C(=O)c3ccccc3C2=O)cc1,SIV,EC50,MTT,,,CEM,4.1 µM
CCOC(=O)c1sc(SC)cc1-c1ccc(Cl)cc1,Trichophyton mentagrophytes,MIC,,A-280,,,>100 µg/mL
CC(C)CN(C[C@@H](O)[C@H](Cc1ccccc1)NC(=O)[C@H](C)N1C(=O)c2ccccc2C1=O)S(=O)(=O)c1ccc(Br)cc1,SIV,EC50,MTT,,,CEM,8.9 µM
O=C(CC(=O)Nc1ccc(F)cc1)Nc1ccc(F)cc1,Escherichia coli,MIC,,ES142,,,>300 µM
Nc1nc2c(ncn2COC(CO)CO)c(=O)[nH]1,Cytomegalovirus,inhibition,,,0.3 µM,HEL,53%
CCCCCCc1cn([C@@H]2O[C@H](COP(=O)(O)O)[C@@H](O)[C@H]2O)c(=O)nc1N,Vesicular stomatitis virus,EC50,,,,,>400 µg/mL
O=C(NNC(=O)Nc1ccccc1C(F)(F)F)Nc1cc(C(F)(F)F)cc(C(F)(F)F)c1,Klebsiella pneumoniae,MIC,,KL21,,,>422 µM
CCCCCOc1ccc(-c2cc(-c3ccc(C(=O)N[C@H]4C[C@@H](O)[C@@H](O)NC(=O)[C@@H]5[C@@H](O)[C@@H](C)CN5C(=O)[C@H]([C@H](O)CC(N)=O)NC(=O)[C@H]([C@H](O)[C@@H](O)c5ccc(O)c(OS(=O)(=O)O)c5)NC(=O)[C@@H]5C[C@@H](O)CN5C(=O)[C@H]([C@@H](C)O)NC4=O)cc3)no2)cc1,Candida guilliermondii,MIC50,broth dilution,,,,0.25 µg/mL
Nc1nc(=O)n2ccn([C@@H]3O[C@H](CO)[C@@H](O)[C@H]3O)c2n1,Dengue virus,EC50,,TYPE 2,,,>100 µM
CN(NC(=O)Nc1ccc(C(F)(F)F)cc1)C(=O)Nc1cc(C(F)(F)F)cc(C(F)(F)F)c1,Escherichia coli,MIC,,ES142,,,>300 µM
Cc1cn([C@@H]2O[C@H](CO)[C@@H](O)[C@@H]2F)c(=O)nc1N,Varicella zoster virus,inhibition,plaque count,Kawaguchi,0.01 µg/mL,HELF,86%
O=C(NNC(=O)Nc1ccc(Cl)c(Cl)c1)Nc1ccc(Cl)c(Cl)c1,Klebsiella pneumoniae,MIC,,KL21,,,1.2 µM
CCc1cn([C@@H]2O[C@H](CO)[C@@H](O)[C@@H]2O)c(=O)[nH]c1=O,Varicella zoster virus,inhibition,plaque count,Kawaguchi,100 µg/mL,HELF,0%
O=C(NN1C(=O)CSC1C1C(c2ccccc2)=Nc2ccc(Cl)cc21)N1c2ccccc2C=Cc2ccccc21,Aspergillus oryzae,zone,agar diffusion,MTCC-3567,500 µg/mL,,12 mm
CSc1nsc(-c2ccc(O)cc2)c1C#N,Encephalomyocarditis virus,EC50,plaque count,Encephalomyocarditis virus,,L929,>2 µM
CC(=O)ONc1ccc(S(=O)(=O)N(Cc2ccccc2)C[C@@H](O)[C@H](Cc2ccccc2)NC(=O)CN2C(=O)c3ccccc3C2=O)cc1,SIV,EC50,MTT,,,CEM,4.6 µM

The first 7 rows once more:

| smiles | species | read-out | read by | strain | dose | cell line | result |
|---|---|---|---|---|---|---|---|
| O=C(NN=CC1C(c2ccccc2)=Nc2ccccc21)N1c2ccccc2C=Cc2ccccc21 | Aspergillus terreus | zone | agar diffusion | MTCC-1782 | 750 µg/mL |  | 6 mm |
| Cc1ccc(C(C)C)cc1 | Aspergillus fumigatus | MLC |  | F05 |  |  | >20 µg/mL |
| CSc1nsc(-c2cccc3ccccc23)c1C#N | Measles virus | EC50 | plaque count | Edmonston |  | HEP-2 | >4 µM |
| COc1cc(N=C(N)N)ccc1-c1ccc(-c2ccc(N=C(N)N)cc2OC)o1 | Bovine viral diarrhea virus | inhibition |  |  | 25 µM | MDBK | 93% |
| CC(=O)ONc1ccc(S(=O)(=O)N(Cc2ccccc2)C[C@@H](O)[C@H](Cc2ccccc2)NC(=O)CCc2c[nH]c3ccccc23)cc1 | SIV | EC50 | MTT |  |  | CEM | 8.4 µM |
| Nc1nc2c(ncn2CCC(CO)COP(=O)(O)OP(=O)(O)OP(=O)(O)O)c(=O)[nH]1 | Duck hepatitis B virus | EC50 |  |  |  | Primary duck hepatocytes | 0.7 µM |
| O=c1[nH]c(=O)n([C@H]2C[C@H](O)[C@@H](CO)O2)cc1I | Varicella zoster virus | inhibition | plaque count | YS | 0.1 µg/mL | HELF | 5% |

ECn: concentration that inhibits the pathogen or its effect by n%. Neighbouring rows are from separate reports. Percent inhibition refers to the dose given; in toxicity tests it is the harm to the cells. Zone: diameter of growth inhibition. An empty or dashed field is not shown.